This is an account of results in PubChem BioAssay AID504832 (National Center for Advancing Translational Sciences (NCATS), 2011).

Structures are written as SMILES. This is a selection; strong and weak results do not stand in their true shares. Inconclusive results are not listed. Some salts and complexes are drawn in separate pieces, as the source files them; their charges need not balance. Active and inactive are the calls of the source. Calls follow the shape of the dose curve; as a rule, active = well fitted inhibition curve with a large enough effect; inconclusive = small, poorly fitted or top-dose-only effect, or another doubt; inactive = no such curve, though single readings can be large or run the other way.
% is scaled to controls: 0 for no effect and ±100 for the full control effect.

The assay in a line: Primary qHTS for delayed death inhibitors of the malarial parasite plastid, 48 hour incubation. To be noted: P. falciparum luciferase growth in erythrocytes; at 28.7 µM (top of the series). The source says: The goal of this screen is to discover new antimalarial compounds that act by inhibiting the development of the apicoplast in the malarial parasite Plasmodium falciparum. The biochemical processes that make this organelle essential for erythrocytic stage parasites are not well understood. However, antibiotics such as azithromycin and tetracycline, which target the apicoplast translational machinery, have a potent antimalarial effect.
We have developed a cell-based assay that measures parasite growth based on the expression of an integrated copy of a firefly luciferase reporter. To detect small molecules that cause this "delayed death" phenotype, erythrocytes infected with the luciferase-expressing parasites were incubated with compounds for either one or two generations, corresponding to 48 and 96 hours, respectively. Compounds that inhibit parasite growth in the second generation, but not the first, should be enriched in antimalarials that target the apicoplast. Growth inhibition is detected by a decrease in luciferase activity.
Assay Provider: David Fidock and Eric Ekland, Columbia University
Keywords: NIH Roadmap, MLPCN, MLI, MLSMR, qHTS, NCGC, qHTS, malaria, luciferase, viability
Four microliters of culture medium (RPMI 1640 with 0.5% w/v Albumax (GIBCO), 24 mM sodium bicarbonate and 10 ug/mL gentamycin) were dispensed by a Multi-drop Combi into white solid 1536-well plates (Grenier) and 23 nL compound was added by a pin tool. Four microliters of infected erythrocytes (2% hematocrit, 0.1% parasitemia final concentration) in culture medium were dispensed and the plates incubated for 48 hours at 37 C in 5% CO2. Two microliters of luciferase detection reagent was added and luminescence was detected by a ViewLux (PerkinElmer) reader.
Background: In qHTS, concentration-response curves come from the screen itself.
`O=[N+]([O-])c1cc([N+](=O)[O-])c(OC2CCCCC2O)c([N+](=O)[O-])c1` (configuration not stated): the activity change, negative = inhibition was inactive: 16.2%.
As for `O=C(OC1CN2CCC1CC2)c1ccc([N+](=O)[O-])cc1` (configuration not stated), the figure is inactive: 11.7%; as for `COc1ccc2c(c1O)-c1c(O)c(OC)cc3c1[C@H](C2)[N+](C)(C)CC3.O=[N+]([O-])c1cc([N+](=O)[O-])c([O-])c([N+](=O)[O-])c1[O-]`, inactive: -7.16%.
For the compound `O=[N+]([O-])c1cc([N+](=O)[O-])c(NCC2CCS(=O)(=O)C2)c([N+](=O)[O-])c1` (configuration not stated), the activity change, negative = inhibition is inactive: 42.5%.
Consider `CCOC(=O)C(CC)C1=NC(C)(C)Cc2ccccc21.O=[N+]([O-])c1cc([N+](=O)[O-])c(O)c([N+](=O)[O-])c1` (configuration not stated), for which the activity change, negative = inhibition was inactive: 63.3%.
With `N/C(=N\O)c1c(N)no[n+]1[O-]`, the activity change, negative = inhibition was inactive: 2.94%.
For `O=C(O)c1cccc(Nc2c([N+](=O)[O-])cc([N+](=O)[O-])cc2[N+](=O)[O-])c1` the value was inactive: -1.51%.
